Anti-infective test results gathered from many reports (values: NIAID ChemDB through PubChem).

Common to all: growth or infection tests; agent: Mycobacterium avium complex

Lines come from different laboratories, so protocols vary. A number after MIC or MFC names an inhibition level or a share of isolates.

CCCCN1CCN(c2cc3c(cc2F)c(=O)c(C(=O)O)cn3-c2ccc(F)cc2F)CC1 ; measure: MIC50 ; strain or isolate: 14 strains ; value: 4 µg/mL
NCC[C@H](O)C(=O)N[C@@H]1C[C@H](N)[C@@H](O[C@H]2O[C@H](CN)[C@@H](O)[C@H](O)[C@H]2O)[C@H](O)[C@H]1O[C@H]1O[C@H](CO)[C@@H](O)[C@H](N)[C@H]1O ; measure: MIC ; strain or isolate: 3215 ; value: 16 µg/mL
CO[C@H]1/C=C/O[C@@]2(C)Oc3c(C)c(O)c4c(O)c(c(/C=N/N5CCN(C)CC5)c(O)c4c3C2=O)NC(=O)/C(C)=C\C=C\[C@H](C)[C@H](O)[C@@H](C)[C@@H](O)[C@@H](C)[C@H](OC(C)=O)[C@@H]1C ; measure: MIC90 ; strain or isolate: 52 isolates ; value: 50 µg/mL
CN[C@@H]1[C@H](O[C@H]2[C@H](O[C@H]3[C@H](O)[C@@H](O)[C@H](N=C(N)N)[C@@H](O)[C@@H]3N=C(N)N)O[C@@H](C)[C@]2(O)C=O)O[C@@H](CO)[C@H](O)[C@H]1O ; measure: MIC ; strain or isolate: 13034 (serotype 18) ; value: 50 µg/mL
CC[C@H]1OC(=O)[C@H](C)[C@@H](O[C@H]2C[C@@](C)(OC)[C@@H](O)[C@H](C)O2)[C@H](C)[C@@H](O[C@@H]2O[C@H](C)C[C@H](N(C)C)[C@H]2O)[C@](C)(OC)C[C@@H](C)C(=O)[C@H](C)[C@@H](O)[C@]1(C)O ; measure: MIC ; strain or isolate: 3213 ; value: 8 µg/mL
NCCC[C@H](N)CC(=O)N[C@H]1CNC(=O)[C@H]([C@H]2C[C@H](O)NC(N)=N2)NC(=O)/C(=C/NC(N)=O)NC(=O)[C@H](CO)NC(=O)[C@H](CO)NC1=O ; measure: MIC ; strain or isolate: Isolate 122 ; value: 100 µg/mL
NC[C@@H]1O[C@H](O[C@H]2[C@@H](O)[C@H](O[C@@H]3[C@@H](O)[C@H](N)C[C@H](N)[C@H]3O[C@H]3O[C@H](CO)[C@@H](O)[C@H](O)[C@H]3N)O[C@@H]2CO)[C@H](N)[C@@H](O)[C@@H]1O ; measure: MIC ; strain or isolate: SK47/HIV+ ; value: 6.25 µg/mL
CCC1CN(c2nc3c(cc2F)c(=O)c(C(=O)O)cn3-c2ccc(F)cc2F)CCN1 ; measure: MIC50 ; strain or isolate: 14 strains ; value: ≥32 µg/mL
NC[C@H]1O[C@H](O[C@H]2[C@H](O)[C@@H](O[C@H]3O[C@H](CO)[C@@H](O)[C@H](N)[C@H]3O)[C@H](N)C[C@@H]2N)[C@H](O)[C@@H](O)[C@@H]1O ; measure: MIC ; strain or isolate: Isolate C-48 ; value: ≥400 µg/mL
NCC[C@H](O)C(=O)N[C@@H]1C[C@H](N)[C@@H](O[C@H]2O[C@H](CN)[C@@H](O)[C@H](O)[C@H]2O)[C@H](O)[C@H]1O[C@H]1O[C@H](CO)[C@@H](O)[C@H](N)[C@H]1O ; measure: MIC ; strain or isolate: 1056 ; value: 10 µg/mL
NC[C@H]1O[C@H](O[C@H]2[C@H](O)[C@@H](O[C@H]3O[C@H](CO)[C@@H](O)[C@H](N)[C@H]3O)[C@H](N)C[C@@H]2N)[C@H](O)[C@@H](O)[C@@H]1O ; measure: MIC ; strain or isolate: Isolate 135 ; value: 25 µg/mL
CO[C@H]1/C=C/O[C@@]2(C)Oc3c(C)c(O)c4c(O)c(c(/C=N/N5CCN(C/C=C/c6ccccc6)CC5)c(O)c4c3C2=O)NC(=O)/C(C)=C\C=C\[C@H](C)[C@H](O)[C@@H](C)[C@@H](O)[C@@H](C)[C@H](OC(C)=O)[C@@H]1C ; measure: MIC ; strain or isolate: CH3 ; value: 0.25 µg/mL
NCCC(O)C(N)CC(=O)NC1CNC(=O)C(C2CCN=C(N)N2)NC(=O)/C(=C/NC(N)=O)NC(=O)C(CO)NC(=O)C(CO)NC1=O ; measure: MIC ; strain or isolate: TMC 1406 ; value: 6.25 µg/mL
C[C@@H]1CN(c2cc3c(cc2F)c(=O)c(C(=O)O)cn3C(C)(C)C)C[C@H](C)N1 ; measure: MIC90 ; strain or isolate: 14 strains ; value: 1 µg/mL
CO[C@H]1/C=C/O[C@@]2(C)Oc3c(C)c(O)c4c(O)c(c(/C=N/N5CCN(C)CC5)c(O)c4c3C2=O)NC(=O)/C(C)=C\C=C\[C@H](C)[C@H](O)[C@@H](C)[C@@H](O)[C@@H](C)[C@H](OC(C)=O)[C@@H]1C ; measure: MIC ; strain or isolate: 1069 ; value: 8 µg/mL
NC[C@@H]1O[C@H](O[C@H]2[C@@H](O)[C@H](O[C@@H]3[C@@H](O)[C@H](N)C[C@H](N)[C@H]3O[C@H]3O[C@H](CO)[C@@H](O)C[C@H]3N)O[C@@H]2CO)[C@H](N)[C@@H](O)[C@@H]1O[C@H]1O[C@H](CO)[C@@H](O)[C@H](O)[C@@H]1O ; measure: MIC ; strain or isolate: TMC 1473 ; value: 3.13 µg/mL
COc1c(N2CCN(C(C)C)CC2)c(F)cc2c(=O)c(C(=O)O)cn(C3CC3)c12 ; measure: MIC90 ; strain or isolate: 14 strains ; value: 8 µg/mL
CC[C@H]1OC(=O)[C@H](C)[C@@H](O[C@H]2C[C@@](C)(OC)[C@@H](O)[C@H](C)O2)[C@H](C)[C@@H](O[C@@H]2O[C@H](C)C[C@H](N(C)C)[C@H]2O)[C@](C)(O)C[C@@H](C)C(=O)[C@H](C)[C@@H](O)[C@]1(C)O ; measure: MIC ; strain or isolate: 3217 ; value: 32 µg/mL
CC(C)(C)n1cc(C(=O)O)c(=O)c2cc(F)c(N3CCNCC3)cc21 ; measure: MIC50 ; strain or isolate: 14 strains ; value: 2 µg/mL
CC(C)N=c1cc2n(-c3ccc(Cl)cc3)c3ccccc3nc-2cc1Nc1ccc(Cl)cc1 ; measure: MIC ; strain or isolate: 541/HIV+ ; value: 0.25 µg/mL
CCN1CCN(c2cc3c(cc2F)c(=O)c(C(=O)O)cn3C(C)C)CC1 ; measure: MIC50 ; strain or isolate: 14 strains ; value: ≥32 µg/mL
NNC(=O)c1ccncc1 ; measure: MIC ; strain or isolate: 13008 (serotype 20) ; value: 0.8 µg/mL
NC[C@H]1O[C@H](O[C@H]2[C@H](O[C@@H]3O[C@H](CO)[C@@H](O)[C@H]3O)[C@@H](O)[C@H](N)C[C@@H]2N)[C@H](N)[C@@H](O)[C@@H]1O ; measure: MIC ; strain or isolate: TMC 1467 ; value: <0.01 µg/mL
CCC1CN(c2nc3c(cc2F)c(=O)c(C(=O)O)cn3C2CC2)CCN1 ; measure: MIC50 ; strain or isolate: 14 strains ; value: 8 µg/mL

A second listing of 3 rows from above:

SMILES | measure | strain or isolate | value
CCC1CN(c2nc3c(cc2F)c(=O)c(C(=O)O)cn3C2CC2)CCN1 | MIC50 | 14 strains | 8 µg/mL
CN[C@@H]1[C@H](O[C@H]2[C@H](O[C@H]3[C@H](O)[C@@H](O)[C@H](N=C(N)N)[C@@H](O)[C@@H]3N=C(N)N)O[C@@H](C)[C@]2(O)C=O)O[C@@H](CO)[C@H](O)[C@H]1O | MIC | 13034 (serotype 18) | 50 µg/mL
CO[C@H]1/C=C/O[C@@]2(C)Oc3c(C)c(O)c4c(O)c(c(/C=N/N5CCN(C/C=C/c6ccccc6)CC5)c(O)c4c3C2=O)NC(=O)/C(C)=C\C=C\[C@H](C)[C@H](O)[C@@H](C)[C@@H](O)[C@@H](C)[C@H](OC(C)=O)[C@@H]1C | MIC | CH3 | 0.25 µg/mL